Results taken from patent publication US4948807A, “Phenyl carbamates” (priority 1985, dated 1990).

Key:
[1] = format: in vivo, mice; settings: dose which inhibits the brain enzyme by 50%; defaecation, lachrymation, fasciculations, tremor
[2] = majority of studies in laboratory animals; cited from earlier work
in vivo = settings: mouse, decrease of acute toxicity (lethality) by the antidote atropine
Description: Mice were given one of at least three different doses of each compound, orally or subcutaneously, a minimum of 10 mice allotted to each dose. The number of animals which died at each dose within 3 hours was determined.
This experiment was repeated after the animals had been pretreated with atropine sulphate, which blocks both peripheral and central muscarinic receptors.
What is important is the safety of the drugs and the presence and severity of side effects that may occur at therapeutic doses. A commonly-used measure of drug safety is the therapeutic index--or LD50 /ED50 [formula]
It is assumed that the therapeutic effect of these anticholinesterase agents results from an elevation of brain cholinergic activity. This in turn, should be related to the degree of inhibition of acetylcholinesterase. For the purpose of the computation of the denominator of the therapeutic ratio, there is used the dose of drug that inhibits the activity of acetylcholinesterase by 50%. […] The numerator is the dose found to kill 50% of the animals within […] of a subcutaneous injection.

## CNC(=O)Oc1ccc2c(c1)[C@]1(C)CCN(C)[C@@H]1N2C [Physostigmine, reference compound]
[1]
  undesirable side effects at ED50 dose: former 3 side effects are clearly evident
[2]
  therapeutic ratio: 3-5
In vivo
  selectivity ratio: 3
